Measurements reported in PubChem BioAssay AID1259414 (Drosophila RNAi Screening Center, 2018).
The screen tested about 24,000 reagents; below is a random part of those with a known target gene and a result. In the full data, about 1,210 (5%) were called active. 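Inactive calls also include excluded dsRNAs with several or no targets, genes unexpressed in JW18, and well A1, regardless of score.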 A plus sign joins genes that one reagent is predicted to hit.

Assay: 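Host factors increasing or decreasing Wolbachia levels in cultured fly cells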 (primary screen)
System: Drosophila JW18 cells infected with Wolbachia
Knock-down reagent: long dsRNA against Drosophila genes, 0.25 µg dsRNA per well of a 384-well plate
Timing: 5 days
Challenge: cells persistently infected with Wolbachia before knock-down; no added drug
Measured: 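Imaged fluorescence in situ signal for Wolbachia 23S rRNA per DAPI-counted host cell, given as a robust z-score within each plate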
Direction: Wolbachia per cell robust z: higher = more Wolbachia per host cell than the plate typical
Call rule: 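Active if absolute robust z reaches 1.5 in two or more of three replicates, leaving out multi- or no-target dsRNAs, genes unexpressed in JW18 and A1 wells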

gene | amplicon | Wolbachia per cell robust z, rep 1 | Wolbachia per cell robust z, rep 2 | Wolbachia per cell robust z, rep 3 | Call
RpL34a (Ribosomal protein L34a) | DRSC15964 | -3.9 | 0.778 | -0.0939 | inactive
wac (wee Augmin) | DRSC08349 | -0.0297 | 0.907 | 1.34 | inactive
wac (wee Augmin) | DRSC28973 | 0.554 | 0.301 | -6.81 | inactive
CG9451 | DRSC11074 | -0.67 | -0.494 | -0.466 | inactive
CG9451 | DRSC26098 | -0.0807 | 0.371 | -0.852 | inactive
CG9451 | DRSC41607 | -0.314 | 0.403 | -0.194 | inactive
hoka | DRSC08313 | -0.819 | -1.02 | -0.865 | inactive
Cpsf160 (Cleavage and polyadenylation specificity factor 160) | DRSC05968 | 0.0534 | 0.0465 | 1.2 | inactive
CG34134 | DRSC38696 | -0.819 | 0.0469 | 0.563 | inactive
CG12538 | DRSC14527 | 0.148 | -0.328 | 0.158 | inactive
CG12538 | DRSC23603 | -0.374 | -0.573 | 0.0935 | inactive
CG11275 | DRSC04095 | 0.277 | 1.48 | 0.0507 | inactive
CG31809 + CG31810 | DRSC25411 | -1.53 | -0.0467 | 0.0829 | inactive
Drep2 (DNA fragmentation factor-related protein 2) | DRSC07528 | 0.172 | 1.08 | -1.19 | inactive
Drep2 (DNA fragmentation factor-related protein 2) | DRSC25612 | -4.42 | -4.28 | -8.25 | inactive
whip (whipple) | DRSC38655 | 0.0748 | 1.34 | -0.327 | inactive
Or19a + Or19b | DRSC22604 | 0.699 | 0.58 | 0.805 | inactive
CG30274 | DRSC04171 | 0.42 | -1 | -0.0703 | inactive
CG30274 | DRSC29207 | 0.342 | 0.714 | -0.459 | inactive
Orc6 (Origin recognition complex subunit 6) | DRSC07497 | 1.08 | 0.831 | 0.746 | inactive
tra (transformer) | DRSC11405 | 1.04 | -8.27 | 1 | inactive
tra (transformer) | DRSC40824 | 0.133 | 0.873 | 0.287 | inactive
CG32198 | DRSC09553 | -1.24 | -1.73 | -0.899 | inactive
CG32198 | DRSC27630 | -7.01 | 0.728 | -1.36 | inactive
Esyt2 (Extended synaptotagmin-like protein 2) | DRSC16082 | 1.25 | 1.75 | -1.24 | inactive
alpha-Est8 (alpha-Esterase-8) | DRSC12620 | -1.51 | 0.0763 | 0.268 | inactive
RpS4 (Ribosomal protein S4) | DRSC11272 | 1.58 | 3.96 | 4.35 | active
CG14286 | DRSC14767 | 0.597 | 0.924 | -0.82 | inactive
CG14286 | DRSC29125 | -0.0829 | -0.235 | -0.556 | inactive
Hecw (Hecw ubiquitin protein ligase) | DRSC18261 | -1.63 | -1.86 | -1.32 | active
Hecw (Hecw ubiquitin protein ligase) | DRSC18276 | -1.25 | -1.02 | -1.29 | inactive
Hecw (Hecw ubiquitin protein ligase) | DRSC25872 | 0.0921 | -0.815 | 0.466 | inactive
Hecw (Hecw ubiquitin protein ligase) | DRSC41302 | 0.521 | 0.209 | 0.489 | inactive
CG42353 + CG42354 | DRSC29165 | 0.668 | -0.22 | -0.466 | inactive
wupA (wings up A) | DRSC20385 | -2.42 | -5.77 | -1.99 | inactive
wupA (wings up A) | DRSC22547 | 0.975 | 0.992 | 1.5 | inactive
wupA (wings up A) | DRSC29330 | -0.812 | 0.0922 | -1.4 | inactive
Pcd (pterin-4a-carbinolamine dehydratase) | DRSC16785 | 0.0754 | -0.367 | -0.998 | inactive
CG5938 | DRSC15923 | 0.172 | 1.03 | -0.254 | inactive
CG5938 | DRSC24038 | -1.05 | 0.614 | -1.08 | inactive
Atg4b (Autophagy-related 4b) | DRSC15988 | -0.234 | -0.664 | -1.11 | inactive
Atg4b (Autophagy-related 4b) | DRSC25480 | 0.592 | -0.36 | -0.843 | inactive
CG8152 | DRSC07083 | -4.19 | -0.653 | 0.528 | inactive
Hcf (Host cell factor) | DRSC17143 | -0.839 | 1.54 | -2.46 | inactive
CG9095 | DRSC20150 | 0.395 | -3.69 | -2.23 | inactive
CheB93b (Chemosensory protein B 93b) | DRSC21762 | 0.352 | -0.96 | -1.55 | inactive

Limited to “Wolbachia per cell robust z, rep 2” (2 entries from above):
tra (transformer) [DRSC11405]	-8.27
tra (transformer) [DRSC40824]	0.873
